Results of unrelated studies side by side (data: NIAID ChemDB).

Shared fields: growth or infection tests; organism: Human cytomegalovirus; cells: HFF; endpoint: EC50

An empty or dashed field is not shown. Conditions beyond the fields shown may differ between rows. ECn is the concentration giving n% inhibition of infection, replication or growth.

structure	strain or isolate	method	value
Nc1ccn(C[C@@H](CO)OCP(=O)(O)O)c(=O)n1	4760RECPOLA1-1-1 (foscarnet-resistant)	plaque count	0.2 µg/mL
CCCCCCCCCCCCCCCCCCOC[C@H](COP(=O)(O)CO[C@H](CO)Cn1ccc(N)nc1=O)OCc1ccccc1	DAVIS	plaque count	0.006 µM
Nc1nc2c(ncn2COC(CO)CO)c(=O)[nH]1	TOWNE	plaque count	1.5 µM
Cc1cn([C@@H]2CC3(CO2)COC(C)(C)O3)c(=O)[nH]c1=O	AD169	-	>100 µM
CCCCCCCC/C=C\CCCCCCCOCCCOP(=O)(O)CO[C@H](CO)Cn1ccc(N)nc1=O	Toledo	plaque count	0.005 µM
Nc1cc2c(=O)c(C(=O)O)cn(C3CC3)c2cc1N1CCN(c2ccc3ccccc3n2)CC1	AD169	plaque count	1.7 µM
CC(C)Oc1ccccc1CNC(=O)c1ccc2cnccc2n1	TOWNE	plaque count	0.06 µM
CCCCCCCCCCCCCCCCCCOCCCOP1(=O)CO[C@@H](Cn2ccc(N)nc2=O)CO1	AD169	plaque count	0.002 µM
C#CCNc1nc(N)nc2c1ncn2/C=C1/C[C@@H]1CO	AD169	plaque count	2.6 µM
Nc1nc2c(ncn2COC(CO)CO)c(=O)[nH]1	Isolate Helebrand (wild type)	plaque count	6.91 µM
Cn1cc(C(=O)NCc2ccc(Cl)cc2)c(=O)c2cc(CN3CCOCC3)ccc21	DAVIS	cytopathic effect	2.4 µM
Nc1nc2c(ncn2/C=C2/CC2(CO)CO)c(=O)[nH]1	C9209 1-4-4 ganciclovir- and foscarnet-resistant	plaque count	1.5 µM
Nc1nc(NCC2CC2)c2ncn(/C=C3/C[C@@H]3CO)c2n1	AD169	plaque count	52 µM
CC1(C)OCC2(COC(O)C2)O1	AD169	-	>100 µM
CCCCCCCCCCCCCCCCCOC[C@H](COP1(=O)CO[C@@H](Cn2ccc(N)nc2=O)CO1)OCc1ccccc1	AD169	plaque count	0.013 µM
CC(=O)O[C@H]1[C@H](n2c(Br)nc3cc(Cl)c(Cl)cc32)OC[C@H]1OC(C)=O	TOWNE	virus yield	<0.05 µM
COc1nc(N)nc2c1ncn2/C=C1/C[C@H]1CO	AD169	-	5.3 µM
CCCCCCCC/C=C\CCCCCCCCOCCOP(=O)(O)CO[C@H](CO)Cn1ccc(N)nc1=O	VR4760 (foscarnet-resistant)	plaque count	0.01 µM
COC(=O)[C@H](C)NP(=O)(OCC1C/C1=C/n1cnc2c(=O)[nH]c(N)nc21)Oc1ccccc1	AD169	-	25 µM
COC(c1cn([C@H]2C[C@H](O)[C@@H](CO)O2)c(=O)[nH]c1=O)C(Cl)Cl	AD169	plaque count	>282 µM
CCCOc1nc(N)nc2c1ncn2/C=C1/C[C@@H]1CO	TOWNE	plaque count	0.4 µM
COc1nc(N)nc2c1ncn2C=C1CC1CO	AD169	plaque count	5.3 µM
COc1ccc(Cn2cc(C(N)=S)c3c(N)ncnc32)cc1	TOWNE	plaque count	0.4 µM
Nc1nc2c(ncn2COC(CO)CO)c(=O)[nH]1	AD169	plaque count	3 µM
COC(c1cn([C@H]2C[C@H](O)[C@@H](CO)O2)c(=O)[nH]c1=O)C(Cl)I	AD169	plaque count	>214 µM
CC(C)Nc1nc2cc(Cl)c(Cl)cc2n1[C@H]1O[C@@H](CO)[C@H](O)[C@@H]1O	TOWNE	virus yield	<0.6 µM
CCCCCCCCCCCCOCCCOP(=O)(O)CO[C@H](CO)Cn1ccc(N)nc1=O	AD169	plaque count	0.01 µM
C=CCOc1nc(N)nc2c1ncn2/C=C1/C[C@@H]1CO	AD169	plaque count	2.1 µM
Nc1nc2c(ncn2CCC(CO)CO)c(=O)[nH]1	AD169	plaque count	150 µM
Nc1cc2c(=O)c(C(=O)O)cn(C3CC3)c2cc1N1CCN(c2cnccn2)CC1	AD169	plaque count	1.4 µM
COC(=O)C(C)NP(=O)(OC[C@@H]1C/C1=C\n1cc(C)c(=O)[nH]c1=O)Oc1ccccc1	TOWNE	plaque count	>100 µM
Nc1nc2c(ncn2COC(CO)CO)c(=O)[nH]1	AD169	virus yield	<1.2 µM
CCCCCCCCOCCCOP(=O)(O)CO[C@H](CO)Cn1ccc(N)nc1=O	AD169	plaque count	>1 µM
CN[C@H]1C[C@@H](n2cnc3c(N)ncnc32)[C@H](O)[C@@H]1O	-	-	45.1 µg/mL
O=C(NCc1ccc(Cl)cc1)c1cn2c3c(cc(CN4CCOCC4)cc3c1=O)OC(c1cccnc1)C2	759/R D100 (GCV-resistant)	plaque count	2.4 µM
CC(C)Nc1nc2cc(Cl)c(Cl)cc2n1[C@H]1O[C@@H](CO)[C@H](O)[C@@H]1O	Isolate Helebrand (resistant)	plaque count	0.22 µM
Nc1nc2c(ncn2COCCO)c(=O)[nH]1	AD169	plaque count	11 µM
OC[C@H]1O[C@@H](n2c(Br)nc3cc(Cl)c(Cl)cc32)[C@H](O)[C@@H]1O	Coffman	plaque count	1.1 µM
COC(=O)C(Cc1c[nH]c2ccccc12)NP(=O)(O)OCC1C/C1=C/n1cnc2c(N)ncnc21	AD169	cytopathic effect	5.2 µM
OC[C@H]1O[C@@H](n2c(Br)nc3cc(Cl)c(Cl)cc32)[C@H](O)[C@@H]1O	2916R (1263W94-resistant)	virus yield	<46 µM
C[C@@H]1O[C@@H](n2c(Cl)nc3cc(Cl)c(Cl)cc32)[C@H](O)[C@@H]1O	AD169	virus yield	0.82 µM
O=c1ccn([C@@H]2C[C@](O)(CO)CO2)c(=O)[nH]1	AD169	-	>100 µM
Nc1nc2c(ncn2COC(CO)CO)c(=O)[nH]1	TOWNE	virus yield	<3.2 µM
Nc1n[nH]c(=O)c2c1ncn2[C@@H]1O[C@H](CO)[C@@H](O)[C@H]1O	-	plaque count	29 µM
Nc1ncnc2c1ncn2/C=C1\[C@H](CO)C1(F)F	-	-	21 µM
OC[C@@H]1O[C@@H](n2c(Cl)nc3cc(Cl)c(Cl)cc32)[C@H](O)[C@@H]1O	TOWNE	virus yield	<9.2 µM
COC(=O)[C@H](C)NP(=O)(OCC1C/C1=C/n1cnc2c(N)ncnc21)Oc1ccccc1	TOWNE	plaque count	0.14 µM
CCCCCCCC/C=C\CCCCCCCCOCCOP(=O)(O)CO[C@H](CO)Cn1ccc(N)nc1=O	AD169	plaque count	0.0012 µM
Nc1nc2c(ncn2C=C2CC2CO)c(=O)[nH]1	DAVIS	plaque count	2.5 µM
COC(c1cn([C@H]2C[C@H](O)[C@@H](CO)O2)c(=O)[nH]c1=O)C(Cl)Br	AD169	plaque count	>250 µM
CCCCCCCC/C=C\CCCCCCCOCCOP1(=O)CO[C@@H](Cn2ccc(N)nc2=O)CO1	AD169	plaque count	0.0015 µM
Nc1nc2c(ncn2/C=C2\[C@H](CO)C2(F)F)c(=O)[nH]1	-	-	>100 µM
Nc1nc(N)c2ncn(C=C3CC3CO)c2n1	TOWNE	-	24 µM
Nc1nc2c(ncn2COC(CO)CO)c(=O)[nH]1	AD169	plaque count	0.9 µM
CNc1cc2c(=O)c(C(=O)O)cn(C)c2cc1N1CCN(c2cccc(C(F)(F)F)c2)CC1	AD169	plaque count	3.5 µM
COC(=O)C(C)NP(=O)(OC[C@@H]1C/C1=C/n1cc(C)c(=O)[nH]c1=O)Oc1ccccc1	AD169	cytopathic effect	>300 µM
Nc1ncnc2c1ncn2/C=C1/CC1(CO)CO	TOWNE	plaque count	0.33 µM
Nc1nc2c(ncn2CSC(CO)CO)c(=O)[nH]1	AD169	plaque count	>100 µM
Cn1cc(C(=O)NCc2ccc(Cl)cc2)c(=O)c2cc(CN3CCOCC3)ccc21	C8706/13-1-1 (ganciclovir-resistant)	plaque count	1.7 µM
Nc1nc2c(ncn2COC(CO)CO)c(=O)[nH]1	VR4760R (drug-resistant)	plaque count	830 µM
COC(=O)C(C)NP(=O)(OC[C@@H]1C/C1=C\n1cc(N)c(=O)[nH]c1=O)Oc1ccccc1	TOWNE	plaque count	>100 µM
CC1(C)OCC2(CO[C@H](n3ccc(=O)[nH]c3=O)C2)O1	AD169	-	>100 µM
O=c1[nH]c(=O)n([C@H]2C[C@H](O)[C@@H](CO)O2)cc1C(O)C(Br)I	AD169	plaque count	>210 µM
COCCOCn1cc(C(N)=S)c2c(N)ncnc21	TOWNE	plaque count	1 µM
COC(=O)[C@H](C)NP(=O)(OC[C@H]1C/C1=C/n1cnc2c(OC)nc(N)nc21)Oc1ccccc1	TOWNE	-	0.16 µM
Nc1nc(NC2CC2)c2ncn(C=C3CC3CO)c2n1	Toledo	plaque count	5.5 µM
Nc1ncnc2ncn(/C=C3/C(F)C3(CO)CO)c12	AD169	cytopathic effect	>60 µM
Nc1nc2c(ncn2COC(CO)CO)c(=O)[nH]1	-	plaque count	7.4 µM
Nc1nc2c(ncn2C=C2CC2CO)c(=O)[nH]1	AD169	-	1.2 µM
Cn1cc(C(=O)NCc2ccc(Cl)cc2)c(=O)c2cc(CN3CCOCC3)ccc21	LY	plaque count	0.7 µM
OC[C@H]1O[C@@H](n2c(Cl)nc3cc(Cl)c(Cl)cc32)[C@H](O)[C@@H]1O	TOWNE	virus yield	<1.3 µM
O=C(NCCc1ccccc1)C1=Cc2ccncc2CC1	4760RECPOLA1-1-1	plaque count	6.8 µM
OC[C@H]1O[C@@H](n2c(Br)nc3cc(Cl)c(Cl)cc32)[C@H](O)[C@@H]1O	Isolate Helebrand (wild type)	plaque count	1.22 µM
Nc1ccn(C[C@@H](CO)OCP(=O)(O)O)c(=O)n1	Coffman	plaque count	1.6 µM
Nc1nc2c(ncn2COC(CO)CO)c(=O)[nH]1	AD169	plaque count	4.3 µM
CCCCCCCCCCCCCCCCOP(=O)(O)CO[C@H](CO)Cn1ccc(N)nc1=O	C8914-6	plaque count	0.1 µM
COc1ccccc1CNC(=O)C1=Cc2ccncc2CC1	4760RECPOLA1-1-1	plaque count	5.9 µM
OC[C@H]1O[C@@H](n2c(Cl)nc3cc(Cl)c(Cl)cc32)[C@H](O)[C@@H]1O	TOWNE	plaque count	2.8 µM
O=C(O)P(=O)(O)O	1117R3-1-2 cidofovir-resistant	plaque count	35 µg/mL
O=c1[nH]c(=O)n([C@H]2C[C@H](O)[C@@H](CO)O2)cc1C(O)C(Cl)Cl	AD169	plaque count	>294 µM

The first 8 rows once more:

structure,strain or isolate,method,value
Nc1ccn(C[C@@H](CO)OCP(=O)(O)O)c(=O)n1,4760RECPOLA1-1-1 (foscarnet-resistant),plaque count,0.2 µg/mL
CCCCCCCCCCCCCCCCCCOC[C@H](COP(=O)(O)CO[C@H](CO)Cn1ccc(N)nc1=O)OCc1ccccc1,DAVIS,plaque count,0.006 µM
Nc1nc2c(ncn2COC(CO)CO)c(=O)[nH]1,TOWNE,plaque count,1.5 µM
Cc1cn([C@@H]2CC3(CO2)COC(C)(C)O3)c(=O)[nH]c1=O,AD169,-,>100 µM
CCCCCCCC/C=C\CCCCCCCOCCCOP(=O)(O)CO[C@H](CO)Cn1ccc(N)nc1=O,Toledo,plaque count,0.005 µM
Nc1cc2c(=O)c(C(=O)O)cn(C3CC3)c2cc1N1CCN(c2ccc3ccccc3n2)CC1,AD169,plaque count,1.7 µM
CC(C)Oc1ccccc1CNC(=O)c1ccc2cnccc2n1,TOWNE,plaque count,0.06 µM
CCCCCCCCCCCCCCCCCCOCCCOP1(=O)CO[C@@H](Cn2ccc(N)nc2=O)CO1,AD169,plaque count,0.002 µM